According to ChEMBL document CHEMBL2069294, “Synthesis and evaluation of hybrid drugs for a potential HIV/AIDS-malaria combination therapy” (Bioorg Med Chem, 2012):

Tested on: HeLa
Assay: Selectivity index, ratio of CC50 for human HeLa cells to IC50 for Plasmodium falciparum 3D7 ring stage cells
Format: functional

## C1OOCOO1
  Ratio CC50/IC50: > 312
